Pooled drug test results. Numbers come from NIAID ChemDB, via PubChem.

All rows: host cell toxicity; cells: C8166; endpoint: CC50

Lines come from different laboratories, so protocols vary. CCn is the concentration with n% toxicity to the cells.

CC(=O)O[C@@]12[C@H](OC(=O)CCCCCBr)[C@@H](C)[C@@]3(O)[C@@H](C=C(CO)C[C@]4(O)C(=O)C(C)=C[C@@H]34)[C@@H]1C2(C)C ; read by: MTT ; result: >200 µM
O=C(c1cc2c([nH]c3ccccc32)c(-c2cccs2)n1)N1CCC(c2ccncc2)CC1 ; read by: MTT ; result: >400 µM
Cc1ccc(S(=O)(=O)n2cc(C=O)c3cc(C#N)ccc32)cc1 ; read by: MTT ; result: 195 µM
CC/C=C\C/C=C\C/C=C\C/C=C\C/C=C\CCCC(=O)OCC1=C[C@H]2[C@@H]3C(C)(C)[C@]3(OC(=O)CCC/C=C\C/C=C\C/C=C\C/C=C\C/C=C\CC)[C@H](O)[C@@H](C)[C@]2(O)[C@@H]2C=C(C)C(=O)[C@@]2(O)C1 ; read by: MTT ; result: 86.42 µM
COc1ccc(C(=O)CSc2nc(Cc3ccccc3)c(C)c(=O)[nH]2)cc1 ; read by: MTT ; result: >526 µM
N#Cc1ccc2c(c1)c(C=O)cn2S(=O)(=O)c1cccc([N+](=O)[O-])c1 ; read by: MTT ; result: 337 µM
O=C(c1cc2c([nH]c3ccccc32)c(-c2cccs2)n1)N1CCC(Cc2ccccc2)CC1 ; read by: MTT ; result: >400 µM
Cc1cccnc1CN(C)Cc1nc2nccc(N3CCN(C)CC3)c2[nH]1 ; read by: MTT ; result: >10 µM
COc1cc(C[C@H]2CO[C@@H](O[C@@H](CCc3ccccc3)CC(=O)c3ccc(O)cc3)[C@@H]2Cc2ccc(O)c(OC)c2)ccc1O ; read by: MTT ; result: 9.21 µg/mL
CCCC(=O)OCC1=C[C@H]2[C@@H]3C(C)(C)[C@]3(OC(=O)CCC)[C@H](OC(=O)/C=C/c3ccccc3)[C@@H](C)[C@]2(O)[C@@H]2C=C(C)C(=O)[C@@]2(O)C1 ; read by: MTT ; result: >200 µM
O=Cc1cn(S(=O)(=O)c2ccc(Cl)cc2)c2ccccc12 ; read by: MTT ; result: 308 µM
CCO[C@H]1OC[C@H](Cc2ccc(O)c(OC)c2)[C@H]1Cc1ccc(O)c(OC)c1 ; read by: MTT ; result: 19.23 µg/mL
C[C@H](Cn1cnc2c(N)ncnc21)OCP(=O)(O)O ; result: >14.3 µg/mL
CN1CCN(c2ccnc3nc(CN(C)C4CCCc5cccnc54)[nH]c23)CC1 ; read by: MTT ; result: 5 µM
CCCCCCCCCCCCCC(=O)O[C@@H]1[C@@H](C)[C@@]2(O)[C@@H](C=C(CO)C[C@]3(O)C(=O)C(C)=C[C@@H]23)[C@@H]2C(C)(C)[C@]12O ; read by: MTT ; result: 23.9 µM
CCc1c(Cc2cccc3ccccc23)nc(SCC(=O)c2ccco2)[nH]c1=O ; read by: MTT ; result: 201 µM
O=Cc1cn(S(=O)(=O)c2ccc(Br)cc2)c2ccccc12 ; read by: MTT ; result: 80.67 µM
CCc1c(Cc2cccc3ccccc23)nc(SCC(=O)c2ccccc2)[nH]c1=O ; read by: MTT ; result: >482 µM
COc1ccc(/C=C/C(=O)O[C@@]23[C@H](O)[C@@H](C)[C@@]4(O)[C@@H](C=C(CO)C[C@]5(O)C(=O)C(C)=C[C@@H]45)[C@@H]2C3(C)C)cc1OC(C)=O ; read by: MTT ; result: 92.23 µM
CC(C)c1c(Cc2cccc3ccccc23)nc(SCC(=O)c2ccccc2)[nH]c1=O ; read by: MTT ; result: >467 µM
Cc1ccc2c(C=O)cn(S(=O)(=O)c3cccc([N+](=O)[O-])c3)c2c1 ; read by: MTT ; result: 410 µM
CN(Cc1nc2ccccc2[nH]1)Cc1ncccc1CCC(N)=O ; read by: MTT ; result: >10 µM
CCc1c(Cc2ccccc2)nc(SCC(=O)c2ccco2)[nH]c1=O ; read by: MTT ; result: >564 µM
O=C(c1cc2c([nH]c3ccccc32)c(-c2cccs2)n1)N1CCC(c2ccccn2)CC1 ; read by: MTT ; result: 10.6 µM
Cc1ccc2c(C=O)cn(S(=O)(=O)c3ccc(Cl)c([N+](=O)[O-])c3)c2c1 ; read by: MTT ; result: 13.31 µM
Cc1c(Cc2cccc3ccccc23)nc(Sc2cccs2)[nH]c1=O ; read by: MTT ; result: 88.3 µM
O=C(c1cc2c([nH]c3ccccc32)c(-c2cccs2)n1)N1CCC(c2ccc(Cl)cc2)CC1 ; read by: MTT ; result: >400 µM
CC(=O)NCCCc1cccnc1CN(C)Cc1nc2ccccc2[nH]1 ; read by: MTT ; result: >10 µM
CCc1c(Cc2ccccc2)nc(SCC(=O)c2ccc(OC)cc2)[nH]c1=O ; read by: MTT ; result: >507 µM
CN(C)CCCc1cccnc1CN(C)Cc1nc2ccccc2[nH]1 ; read by: MTT ; result: >10 µM
CCc1c(Cc2cccc3ccccc23)nc(SCCc2ccccc2)[nH]c1=O ; read by: MTT ; result: 321 µM
Cc1ccsc1CN(CCCCN)Cc1nc2nccc(N3CCN(C)CC3)c2[nH]1 ; read by: MTT ; result: >10 µM
CC(C)c1c(Cc2ccccc2)nc(SCC(=O)c2ccco2)[nH]c1=O ; read by: MTT ; result: >543 µM

A second listing of 4 rows from above:

| SMILES | read by | result |
|---|---|---|
| CN(C)CCCc1cccnc1CN(C)Cc1nc2ccccc2[nH]1 | MTT | >10 µM |
| O=Cc1cn(S(=O)(=O)c2ccc(Cl)cc2)c2ccccc12 | MTT | 308 µM |
| CCc1c(Cc2ccccc2)nc(SCC(=O)c2ccc(OC)cc2)[nH]c1=O | MTT | >507 µM |
| CN(Cc1nc2ccccc2[nH]1)Cc1ncccc1CCC(N)=O | MTT | >10 µM |